Measurements published in paper PMC10525570, “Antiviral Activity of Anthranilamide Peptidomimetics against Herpes Simplex Virus 1 and a Coronavirus” (Antibiotics, 2023).

Tests used:
MHV-1 = experiment: Virus pre-treatment (direct virus inactivation) plaque assay, MHV-1; format: cell-based, Murine hepatitis virus 1; details: ratio of CC50 (A9 cells) to IC50 (MHV-1)
Description: (§1) The peptidomimetics were evaluated for their antiviral activity using three different assays: virus pre-treatment, cell pre-treatment, and post-treatment assays, with the main distinction being the timing of the compound addition. Cells were seeded in 24-well plates at a density of 2.5 × 10^5 cells/well and incubated for 48 h at 37 °C. In all assays, the compounds were added to DMEM medium in the absence of fetal bovine serum (FBS). All experiments were performed in duplicate with two independent replicates. The inhibitory effect on viral infectivity was determined by comparing the number of plaques in wells treated with the test compounds (peptidomimetics) to the plaques observed in the control wells (cells infected with the virus without test compounds).
(§2) Virus pre-treatment assay: In this assay, the test compounds were added to the virus (1 × 10^3 PFU/mL) and incubated for 3 h at 37 °C. After incubation, each mixture (virus/peptide) was diluted in DMEM medium containing 10% FBS to neutralize the peptides or mimics. The dilutions were then added to the cell monolayers for 1 h, followed by the addition of an agar overlay containing 1% agar. The cells were further incubated for 72 h, after which they were fixed, stained, and the number of plaques was counted.

HSV-1 = experiment: Virus pre-treatment (direct virus inactivation) plaque assay, HSV-1; format: cell-based, herpes simplex virus 1; details: ratio of CC50 (Vero cells) to IC50 (HSV-1)
Description: as §1, §2

Row | SMILES | MHV-1 (A9 Cells) Therapeutic Index (MHV-1) | HSV-1 (Vero Cells) Therapeutic Index (HSV-1)
1 | NCCNC(=O)C(Cc1c[nH]c2ccccc12)NC(=O)c1cc(-c2ccccc2-c2ccccc2)ccc1N (stereo not drawn) [Compound 14] | 1.6 | 1.16
2 | N=C(N)NCCNC(=O)C(Cc1c[nH]c2ccccc12)NC(=O)c1cc(Cl)ccc1NC(=O)c1ccc2ccccc2c1 (stereo not drawn) [Compound 9] |  | 3.03
3 | NCCCCC(N)C(=O)NCCNC(=O)C(Cc1c[nH]c2ccccc12)NC(=O)c1cc(Br)ccc1NC(=O)c1ccc(-c2ccccc2)cc1 (stereo not drawn) [Compound 16] | 3.62 | 
4 | NCCCCC(N)C(=O)NCCNC(=O)C(Cc1c[nH]c2ccccc12)NC(=O)c1cc(Br)ccc1NC(=O)c1ccc2ccccc2c1 (stereo not drawn) [Compound 15] | 5.65 | 
5 | NCCNC(=O)C(Cc1c[nH]c2ccccc12)NC(=O)c1cc(-c2ccc3ccccc3c2)ccc1N (stereo not drawn) [Compound 11] | 9.41 | 0.48
6 | NCCCCC(N)C(=O)NCCNC(=O)C(Cc1c[nH]c2ccccc12)NC(=O)c1cc(Br)ccc1NC(=O)c1cccc(-c2ccccc2)c1 (stereo not drawn) [Compound 17] | 9.71 | 
7 | N=C(N)NCCNC(=O)C(Cc1c[nH]c2ccccc12)NC(=O)c1cc(Br)ccc1NC(=O)c1ccc2ccccc2c1 (stereo not drawn) [Compound 7] |  | 3.87
